The text below walks through data of US20260183277A1, “ANTIVIRAL PHARMACEUTICAL COMPOSITION COMPRISING ERRy INHIBITOR AS ACTIVE INGREDIENT” (priority 2024, published 2026).

Each structure is given as a SMILES string.

The assay relates to SARS-CoV-2 KCDC03 strain. Description: SARS-CoV-2 KCDC03 challenge of Syrian hamsters. The assay is classed as in vivo.

`CC(C)N1CCN(c2ccc(/C(=C(/CCCO)c3ccccc3)c3ccc(O)cc3)cc2)CC1` [DN200434]: the body weight loss result (SARS-CoV-2-challenged hamsters) is listed as “alleviated”. Besides, for the setting “hamsters”, the histopathological lung lesions result is listed as “effectively mitigated”; the “viral genome replication and progeny production in lungs” value was “substantial reduction”. Further, the “levels of LTB4, PGE2, IL-6, TNF-α, and MCP-1 in BALF” value (hamsters, i.p., vs vehicle-treated controls) is reported as “significantly reduced”. Also, for the setting “hamsters, vs virus-challenged, vehicle-treated control”, the “TAG levels in lung tissues” value is “decrease”.
